A mixed list of measured activities; the numbers were collected in NIAID ChemDB.

Common to all: enzyme or target tests; agent: Mycobacterium tuberculosis

Inhibition is in % at the dose shown (toxicity tests: loss of growth or viability). Neighbouring rows are from separate reports. ICn: concentration for n% inhibition. Blank or dashed fields: not listed here.

smiles,strain,target,read by,endpoint,dose,result
C=Cc1nsc(=O)o1,,Proteasome,broth dilution / fluorescence,IC50,,27 µM
O=C(O)Cc1ccc(O)c(Cl)c1,Rv1284,Rv1284,,Ki,,10.8 µM
CS[C@]1(CO)C(=O)N2[C@H]3C(=CC=C[C@@H]3O)C[C@@]2(SC)C(=O)N1C,,MYCOTHIOL-S-CONJUGATE AMIDASE,,IC50,,70 µM
O=c1oc(/C(=C/c2ccccc2)c2ccccc2)ns1,,Proteasome,broth dilution / fluorescence,IC50,,>100 µM
NCCCOc1c(Br)cc(C/C(=N\O)C(=O)NCCc2cnc(N)[nH]2)cc1Br,,MYCOTHIOL-S-CONJUGATE AMIDASE,,IC50,,30 µM
CCCOc1ccc(Nc2cc(C)nc3ccc(Cl)cc23)cc1,H37Rv,FtsZ,,IC90,,20.4 µM
CC(C)(C)NC(=O)C(=O)NCc1cccnc1,H37Rv,Lipoamide dehydrogenase,absorbance,inhibition,100 µM,60%
CCC(C)[C@H](NC(=O)N[C@H]1CCCCNC(=O)[C@H](Cc2ccccc2)NC(=O)[C@@H](CC(=O)c2ccccc2NC=O)N(C)C(=O)[C@H](CC(C)C)NC(=O)[C@H](C(C)CC)NC1=O)C(=O)O,,Protein tyrosine phosphatase B,,IC50,,8 µM
O=C(O)c1sc(-c2cccnc2)nc1OCc1cnnn1-c1cc2ccc(O)cc2oc1=O,,DNA gyrase,gel / absorbance,IC50,,18.2 µM
COc1cc(Cc2cnc(N)nc2N)cc(OC)c1OC,,Dihydrofolate reductase,,IC50,,16.5 µM
CC(=O)N(O)CCCP(=O)(O)O,,DXR,,IC50,,0.16 µM
CCN(CC)Cc1cc(Nc2ccnc3cc(Cl)ccc23)ccc1O,,DNA gyrase,gel,IC50,,>100 µM
O=Cc1sc(-c2ccncc2)nc1OCc1cnnn1-c1cc2ccc(O)cc2oc1=O,,DNA gyrase,gel / absorbance,IC50,,>25 µM
CCCCNS(=O)(=O)c1cc(Br)cnc1N,H37Rv,Lipoamide dehydrogenase,absorbance,inhibition,100 µM,15%
CC(=O)N[C@H]1C(O)O[C@H](COC(C)=O)[C@@H](OC(C)=O)[C@H]1O[C@@H]1O[C@@H](C)C[C@@H](OCc2ccccc2)[C@H]1OCc1ccccc1,,Galactosyltransferase,,IC50,,410 µg/mL
Nc1nc(N)nc(-c2ccc(OCc3ccc(Cl)cc3)cc2)n1,,Dihydrofolate reductase,absorbance,IC50,,5.175 µM
Cc1ccc2nc(C)cc(N)c2c1,,Mycolate synthetase,HPLC,IC50,,4200 µM
CCc1ccccc1/C=C/c1nsc(=O)o1,,Proteasome,broth dilution / fluorescence,IC50,,68.5 µM
CC1=CC(=O)c2ccccc2C1=O,,NADH dehydrogenase,,inhibition,40 µM,29%
O=Cc1cc([N+](=O)[O-])cc([N+](=O)[O-])c1O,,UDP-galactopyranose mutase,,inhibition,25 µM,1%
O=c1[nH]c(=O)n([C@H]2C[C@H](O)[C@@H](COP(=O)(O)O)O2)cc1COCc1ccccc1,,Thymidylate kinase,,Ki,,280 µM
Cc1cn([C@H]2C[C@H](N=[N+]=[N-])[C@@H](CO)O2)c(=O)[nH]c1=O,,Thymidylate kinase,,Ki,,28 µM
CCOc1ccc2cc(-n3nncc3COc3nc(-c4cccnc4)sc3C=O)c(=O)oc2c1,,DNA gyrase,gel / absorbance,IC50,,11.3 µM
O=C1C=CC(=O)c2ccccc21,,NADH dehydrogenase,,inhibition,40 µM,22%
Cc1cn([C@@H]2O[C@H](CO)[C@@H](N=[N+]=[N-])[C@H]2O)c(=O)[nH]c1=O,,Thymidylate kinase,,Ki,,740 µM
O=C(N/N=C/c1c(Cl)cccc1[N+](=O)[O-])c1ccc(S(=O)(=O)NC[C@H]2O[C@@H](n3ccc(=O)[nH]c3=O)[C@H](O)[C@@H]2O)cc1,,UDP-galactopyranose mutase,,IC50,,>100 µM
Cc1cn([C@@H]2O[C@H](CO)[C@@H](N)[C@H]2O)c(=O)[nH]c1=O,,Thymidylate kinase,,Ki,,750 µM
Nc1ccc2cc(-n3nncc3COc3nc(-c4ccccn4)sc3C=O)c(=O)oc2c1,,DNA gyrase,gel / absorbance,IC50,,0.44 µM
Cc1cc(N)c2ccccc2[n+]1CCCCCCCCCC[n+]1c(C)cc(N)c2ccccc21,,Mycolate synthetase,HPLC,Ki,,0.22 µM
O=c1[nH]c(=O)n([C@H]2C[C@H](O)[C@@H](CO)O2)cc1I,,Thymidine monophosphate kinase,,IC50,,33 µM
CCOc1ccc2cc(-n3nncc3COc3nc(-c4ccccn4)sc3C=O)c(=O)oc2c1,,DNA gyrase,gel / absorbance,IC50,,10.2 µM
CN(Cc1ccccc1)C(=O)CN(C)S(=O)(=O)c1cc(Br)cnc1N,H37Rv,Lipoamide dehydrogenase,absorbance,inhibition,100 µM,70%
CCOc1ccc2cc(-n3nncc3COc3nc(-c4ccncc4)sc3C=O)c(=O)oc2c1,,DNA gyrase,gel / absorbance,IC50,,9.1 µM
C[C@@H](N)[C@H](O)CCCCCCCCCCCCC(=O)CCCCCCCCC[C@@H](O[C@@H]1O[C@H](CO)[C@@H](O)[C@H](O)[C@H]1O)[C@@H](N)CO,,MYCOTHIOL-S-CONJUGATE AMIDASE,,IC50,,10 µM
O=c1[nH]c(=O)n([C@H]2C[C@H](O)[C@@H](CO)O2)cc1O,,Thymidine monophosphate kinase,,IC50,,270 µM
O=c1onc(C(O)c2ccccc2)s1,,Proteasome,broth dilution / fluorescence,IC50,,>100 µM
Cc1onc(-c2c(N)cccc2Cl)c1C(=O)N[C@H]1[C@@H](OC2C[C@H](CO)[C@@H](O)[C@@H](O)[C@H]2O)O[C@H](CO)[C@@H](O)[C@@H]1O,,MYCOTHIOL-S-CONJUGATE AMIDASE,,inhibition,50 µM,<10%
[N-]=[N+]=N[C@H]1C[C@H](n2cc(Cl)c(=O)[nH]c2=O)O[C@@H]1CO,,Thymidine monophosphate kinase,,IC50,,16 µM
CO[C@H](c1ccccc1)c1nsc(=O)o1,,Proteasome,broth dilution / fluorescence,IC50,,>100 µM
Cc1cn([C@H]2C[C@H](N=[N+]=[N-])[C@@H](COP(=O)(O)O)O2)c(=O)[nH]c1=O,,Thymidylate kinase,,Ki,,50 µM
Cc1cc(N)c2ccccc2[n+]1C,,Mycolate synthetase,HPLC,IC50,,827 µM
[N-]=[N+]=N[C@H]1C[C@H](n2cc(Br)c(=O)[nH]c2=O)O[C@@H]1CO,,Thymidine monophosphate kinase,,IC50,,10.5 µM
NNC(=O)c1ccc(S(=O)(=O)NC[C@H]2O[C@@H](n3ccc(=O)[nH]c3=O)[C@H](O)[C@@H]2O)cc1,,UDP-galactopyranose mutase,,inhibition,25 µM,12%
O[C@H](c1cc(C(F)(F)F)nc2c(C(F)(F)F)cccc12)[C@@H]1CCCCN1,,DNA gyrase,gel,IC50,,>100 µM
C[N+](C)(CCCN1c2ccccc2Sc2ccc(Cl)cc21)Cc1ccccc1,,NADH dehydrogenase,,IC50,,11 µM
CCOC(=O)c1ccccc1S(=O)(=O)NC(=O)Nc1nc(Cl)cc(OC)n1,,Acetohydroxyacid synthase,,Ki,,9.8 µM